Sequence variants of PSTVd stem 26 after infection

Data from the supplement of Wu et al. 2024, doi:10.1371/journal.ppat.1012142.

PSTVd intermediate strain, stem 26: wild type AGGGUACCCU, pool pattern AGGGUNNCNN; upper and lower strand joined, each 5' to 3', the first 5 letters being the upper strand.

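Three N. benthamiana plants were inoculated with the whole mutant pool. Samples came from the inoculated region at 5 days, the leaf margin at 10 and upper systemic leaves at 12.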

Numbers give reads per thousand; 0 = not seen among the reads, higher = more abundant.
Each site shows the three plants.
"Pool" is the share in the plasmid pool used as inoculum, on the same scale.
The inoculated region was read from the minus strand, the other sites from the plus strand.
IR is the inoculated region, LM the leaf margin, Sys the systemic leaves.
Samples held 23,251 to 70,159 reads, so the smallest values rest on one or two reads.
Wild type was 44.9 per thousand in the pool and the most common sequence in every sample (inoculated region 297, 323, 447; leaf margin 793, 829, 846; systemic leaves 974, 853, 877).
Sequences that differ at fixed positions probably stem from PCR or sequencing errors, and defective variants can be carried along by functional ones.

| sequence | pool | IR | LM | Sys |
|---|---|---|---|---|
| AGGGUUGCCG | 5.35 | 2.15 / 2.49 / 1.98 | 0 / 0 / 1.34 | 0 / 0 / 0 |
| AGGGUAGCUC | 2.53 | 2.27 / 2.13 / 1.59 | 1.14 / 0 / 1.07 | 0 / 0 / 0 |
| AGGGUUCCGA | 2.89 | 1.23 / 0.709 / 0.817 | 0.0223 / 0 / 0 | 0 / 0 / 0 |
| AGGGUCUCGG | 4.64 | 1.56 / 1.52 / 1.16 | 0 / 0 / 0.0298 | 0.131 / 0 / 0 |
| AGGGUGCUCU | 0.0329 | 1.28 / 1.58 / 1.55 | 1.11 / 0 / 0 | 0 / 0 / 0 |
| AGGGUGGACG | 0.0329 | 0 / 0.0263 / 0 | 0.0223 / 0 / 0 | 0 / 0 / 0 |
| AGGGUUGGCG | 0.0329 | 0.0236 / 0 / 0 | 0 / 0 / 0 | 0 / 0 / 0 |
| AGGGUUUCGA | 4.16 | 1.18 / 1.16 / 0.774 | 0 / 0 / 0 | 0 / 0.0143 / 0 |
| AGGGUACCGA | 2.75 | 1.06 / 0.683 / 0.559 | 0 / 0 / 0 | 0.0187 / 0.0143 / 0 |
| AGGGUACCGG | 2.86 | 1.11 / 0.656 / 0.860 | 0 / 0 / 0.0298 | 0 / 0.0143 / 0 |
| AGGGUGUUCA | 0.0329 | 1.23 / 1.86 / 1.51 | 1.11 / 1.78 / 1.04 | 0.0374 / 1.04 / 0.942 |
| AGGUUUACAA | 0.477 | 0.142 / 0.0788 / 0.0860 | 0 / 0 / 0 | 0 / 0 / 0 |
| AGGGUGGCAA | 4.16 | 1.23 / 1.92 / 1.12 | 1.18 / 1.31 / 0 | 0 / 0.0143 / 0 |
| AGGGUAACGU | 2.65 | 1.16 / 0.814 / 1.08 | 0.0223 / 0 / 0.0298 | 0 / 0.0285 / 0.0165 |
| AGGGUAACAG | 3.44 | 1.23 / 1.08 / 0.946 | 0 / 0 / 0.0298 | 0 / 0 / 0.0165 |
| AGGGUUUCUC | 4.72 | 3.21 / 4.02 / 3.61 | 1.14 / 1.91 / 0.922 | 0.336 / 1.20 / 0.793 |
| AGGGUCGCGC | 2.62 | 0.898 / 0.656 / 0.860 | 0 / 0 / 0.0298 | 0 / 0 / 0 |
| AGGGUAGCCG | 2.89 | 0.803 / 0.971 / 0.731 | 0 / 0 / 0 | 0.0187 / 0 / 0 |
| AGGGUGACCG | 2.60 | 1.02 / 0.945 / 0.645 | 0 / 0 / 0.0595 | 0 / 0 / 0 |
| AGGGUCACAC | 3.08 | 0.992 / 0.630 / 1.03 | 0 / 0 / 0 | 0 / 1.67 / 0 |
| AGGGUCCUCG | 0.0329 | 0 / 0 / 0 | 0 / 0 / 0 | 0 / 0 / 0 |
| AGGGUUGCAU | 3.52 | 1.54 / 1.16 / 1.03 | 0.0223 / 0 / 0.0298 | 0 / 0 / 0 |
| AGGGUGUCGG | 4.28 | 3.78 / 3.52 / 2.88 | 1.05 / 0 / 1.34 | 0 / 0.214 / 0.909 |
| AGGGUAACUG | 2.88 | 0.992 / 0.656 / 0.559 | 0.0223 / 0 / 0 | 0 / 0 / 0 |
| AGGGUCGGCU | 0.0329 | 0 / 0 / 0 | 0 / 0 / 0 | 0 / 0 / 0 |
| AGGGUGACUU | 3.37 | 3.07 / 4.83 / 3.57 | 2.23 / 2.01 / 1.87 | 0.0374 / 0.941 / 0.0496 |
| AGGGUGUCUA | 3.49 | 2.03 / 2.42 / 2.19 | 2.09 / 2.48 / 1.25 | 0.112 / 1.13 / 1.02 |
| AGGGUUGCUG | 5.26 | 2.67 / 2.68 / 1.68 | 0.0223 / 0 / 0 | 0.280 / 0 / 0 |
| AGGGUUUCCA | 7.12 | 2.84 / 3.62 / 2.24 | 0 / 0.0784 / 0 | 0.0187 / 0 / 0 |
| AGGGUUUCUA | 8.34 | 4.94 / 5.70 / 3.35 | 1.25 / 2.61 / 1.13 | 0.243 / 1.80 / 0.893 |
| AGGGUUGCAG | 2.96 | 1.11 / 0.971 / 0.774 | 0.0223 / 0 / 0 | 0 / 0 / 0.0165 |
| AGGGUAGCUG | 4.03 | 2.55 / 2.81 / 1.42 | 0 / 0 / 0 | 0 / 0 / 0 |
| AGGGUCAGCG | 0.0329 | 0 / 0 / 0 | 0 / 0 / 0 | 0 / 0 / 0 |
| AGGGUAUCUC | 4.39 | 3.17 / 3.18 / 2.41 | 1.31 / 1.72 / 0.952 | 0.0561 / 1.27 / 2.02 |
| AGGGUCCCGG | 3.29 | 1.75 / 1.71 / 1.08 | 0 / 0 / 0.0298 | 0 / 0 / 0 |
| AGGGUCCCUA | 3.50 | 1.46 / 1.29 / 1.03 | 0.0223 / 0 / 0 | 0 / 0 / 0 |
| AGGGUGGCAG | 2.42 | 1.11 / 0.709 / 0.731 | 0 / 0 / 0 | 0 / 0 / 0 |
| AGGGUAACCU | 4.57 | 2.62 / 2.99 / 4.00 | 1.20 / 1.33 / 2.77 | 0.187 / 0.0998 / 1.37 |
| AGGGUAGCCC | 5.30 | 3.71 / 3.44 / 1.76 | 0.779 / 0.627 / 0.0298 | 0.149 / 0 / 0.0165 |
| AGGGUAACGA | 3.37 | 1.44 / 1.52 / 1.20 | 0 / 0 / 0 | 0 / 0 / 0 |
| AGGGUGACUG | 2.37 | 2.13 / 2.15 / 2.15 | 0.957 / 0 / 0.982 | 0 / 0 / 0 |
| AGGGUGCCCG | 2.70 | 1.09 / 0.683 / 0.774 | 0.0223 / 0 / 0.0298 | 0 / 0 / 0 |
| AGGGUGCCAG | 2.52 | 0.992 / 0.814 / 0.559 | 0 / 0 / 0 | 0 / 0 / 0 |
| AGGGUCACCU | 5.35 | 1.80 / 2.10 / 1.85 | 0 / 0.209 / 0 | 0.0187 / 0.0855 / 0.132 |
| AGGGUCUCCC | 3.29 | 2.55 / 2.47 / 2.58 | 1.27 / 0 / 1.16 | 0 / 0 / 0.826 |
| AGGGUUUCAG | 4.01 | 1.61 / 1.34 / 0.903 | 0 / 0 / 0 | 0 / 0 / 0 |
| AGGGUGGGCU | 0.0493 | 0.0236 / 0 / 0 | 0 / 0 / 0 | 0 / 0 / 0 |
| AGGGUUUCCC | 4.21 | 2.88 / 4.20 / 2.54 | 0.735 / 0 / 1.40 | 0.112 / 0 / 0.876 |
| AGGGUACCUC | 2.50 | 2.27 / 2.34 / 1.98 | 1.14 / 0 / 1.16 | 0 / 0 / 0 |
| AGGGUCUCGU | 3.70 | 2.20 / 1.34 / 1.33 | 0.0223 / 0 / 0.0298 | 0.0187 / 0 / 0 |
| AGGGUAUCCC | 2.76 | 1.87 / 2.36 / 1.51 | 1.49 / 0 / 0.744 | 0 / 0 / 0 |
| AGGGUCGCGU | 4.85 | 1.87 / 1.86 / 1.25 | 0 / 0 / 0 | 0.0187 / 0 / 0.0496 |
| AGGGUCACUU | 2.99 | 1.02 / 1.05 / 0.817 | 0.0445 / 0 / 0.0595 | 0 / 0 / 0 |
| AGGGUAGCGU | 4.67 | 2.53 / 2.34 / 1.55 | 0.0223 / 0.0261 / 0.0298 | 0 / 0 / 0 |
| GGUUUCCCAU | 0.0329 | 0 / 0 / 0 | 0 / 0 / 0 | 0 / 0 / 0 |
| AGGGUUUCAU | 3.90 | 1.37 / 0.945 / 0.645 | 0 / 0 / 0 | 0.224 / 0 / 0.0165 |
| AGGGUUGCCA | 5.02 | 1.89 / 2.55 / 1.33 | 0 / 0 / 0 | 0.149 / 0.0998 / 0.0165 |
| AGGGUUACCU | 3.47 | 1.25 / 1.26 / 1.59 | 0.0223 / 0 / 0 | 0 / 0.0143 / 0.0165 |
| AGGGUACCGU | 2.96 | 1.04 / 0.998 / 0.817 | 0 / 0.131 / 0.0893 | 0.0747 / 0.0285 / 0.0496 |
| AGGGUUACGG | 4.14 | 2.65 / 2.18 / 1.55 | 0 / 0.0261 / 0.0298 | 0.430 / 0 / 0 |

Excerpt, the final 7 entries:

sequence	pool	IR	LM	Sys
AGGGUAGCGU	4.67	2.53 / 2.34 / 1.55	0.0223 / 0.0261 / 0.0298	0 / 0 / 0
GGUUUCCCAU	0.0329	0 / 0 / 0	0 / 0 / 0	0 / 0 / 0
AGGGUUUCAU	3.90	1.37 / 0.945 / 0.645	0 / 0 / 0	0.224 / 0 / 0.0165
AGGGUUGCCA	5.02	1.89 / 2.55 / 1.33	0 / 0 / 0	0.149 / 0.0998 / 0.0165
AGGGUUACCU	3.47	1.25 / 1.26 / 1.59	0.0223 / 0 / 0	0 / 0.0143 / 0.0165
AGGGUACCGU	2.96	1.04 / 0.998 / 0.817	0 / 0.131 / 0.0893	0.0747 / 0.0285 / 0.0496
AGGGUUACGG	4.14	2.65 / 2.18 / 1.55	0 / 0.0261 / 0.0298	0.430 / 0 / 0